{"source": "paper PMC8050853", "key": {"[1]": {"target": "PorX-c-His6 (UniProt B2RJJ3)", "assay": "EMSA", "conditions": "0.5 pmol DNA, 0/50/100 pmol protein in 20 ul, poly(dI:dC), 7.5 mM MgCl2; EMSA: 20 mM HEPES-KOH pH 7.9, 0.1 M KCl, 7.5 mM MgCl2, 0.2 mM EDTA, 20% glycerol, 1 mM DTT, 0.5 mM PMSF, poly(dI:dC) 0.02 ug/ul, BSA 1.25 ug/ul, room temperature, 30 min; recombinant protein; residues 1-518; protein details: C-terminal His6; label: 32P (5' end of primer 4025); probe letters rebuilt from the primers and the …"}, "[2]": {"target": "PorX-c-His6 (UniProt B2RJJ3)", "assay": "DNase I footprinting", "conditions": "~25 pmol DNA, 0/70/140/280 pmol protein in 100 ul, Sites I and II protected; recombinant protein; residues 1-518; protein details: C-terminal His6; label: 32P (5' end of primer 4025); probe letters rebuilt from the primers and the …"}}}
{"sequence": "CACACGTTCTATATTGCGACGAAAGCGCAGTCGATCGTTCTGAATAGTGACATCGCGCATCTCCATGACGAATCTATTGAGAAGAGAATGCTCGGCACCTAAGTGTATTACTTCCATAATTATTGTTGTGAGGTAGGTTATGCAAATCTACGAACGAGATGTTCTAAATACCGATTCGCGCAAAAATACAATATCTTTGCTGCATAAGGCGTTGATCTTACACACCAAATAAAGAATTGAAGATTATTCTCTCAGATGCAATTCTTATATAATTCACGTTTTTCGTTGAGAGTCGCTCTCT (double strand) [porT promoter fragment]", "values": [{"measurement": "binding result", "setting": "[1]", "result": "binds"}, {"measurement": "binding result", "setting": "[2]", "result": "binds"}]}
